Test results taken from patent US20110098492A1, “CLEANING COMPOSITIONS CONTAINING MID-RANGE ALKOXYLATES” (priority 2008, published 2011).

Test system: microorganisms derived from activated sludge
Test: OECD 301 F biodegradation (manometric respirometry)
Settings: aerobic

Substance | OECD 301F Biodegradation, %
2EH(PO)5(EO)9 [Example 8] | 79%
C9(PO)4(EO)8 [Example 10] | 70%
